## Share of PSTVd stem 3 variants by leaf site

Data from the supplement of Wu et al. 2024, doi:10.1371/journal.ppat.1012142.

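Three N. benthamiana plants were inoculated with the whole mutant pool. Progeny were sequenced from the inoculated region (day 5), the margin of the inoculated leaf (day 10) and systemic leaves (day 12).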

Region: stem 3 of PSTVd (intermediate strain), upper and lower strand joined, each 5' to 3', the first 8 letters being the upper strand. Wild type: GUGGUUCCGGAACCGC. Varied positions (N): GUGGUUCCGNANNCNN.

Values are reads per thousand in the sample; higher means more abundant, 0 means not found.
Each site shows the three plants.
"Pool" is the share in the plasmid pool used as inoculum, on the same scale.
The inoculated region was read from the minus strand, the other sites from the plus strand.
IR is the inoculated region, LM the leaf margin, Sys the systemic leaves.

| sequence | pool | IR | LM | Sys |
|---|---|---|---|---|
| GUGGUUCCGGAGACAG | 0.662 | 0.826 / 0.690 / 0.811 | 0 / 0 / 0.361 | 0 / 0 / 0 |
| GUGGUUCCGGAGACAU | 0.954 | 0.666 / 0.604 / 0.865 | 0 / 0 / 0 | 1.21 / 1.05 / 0.584 |
| GUGGUUCCGGAGACCA | 0.877 | 0.320 / 0.410 / 0.324 | 0 / 0 / 0.0361 | 0 / 0 / 0 |
| GUGGUUCCGGAGACCC | 1.26 | 0.826 / 0.733 / 0.594 | 0 / 0 / 0.0361 | 0.149 / 0 / 0 |
| GUGGUUCCGGAGACCG | 0.816 | 0.347 / 0.173 / 0.270 | 0 / 0 / 0 | 0 / 0 / 0 |
| GUGGUUCCGGAGACCU | 0.800 | 1.01 / 0.906 / 1.19 | 0.0567 / 0 / 0.144 | 0 / 0 / 0 |
| GUGGUUCCGGAGACGA | 0.877 | 0.240 / 0.259 / 0.216 | 0 / 0 / 0.0361 | 0 / 0 / 0 |
| GUGGUUCCGGAGACGC | 0.723 | 0.160 / 0.345 / 0.270 | 0 / 0 / 0.0722 | 0 / 0 / 0 |
| GUGGUUCCGGAGACGG | 0.739 | 0.293 / 0.539 / 0.108 | 0 / 0 / 0 | 0 / 0 / 0 |
| GUGGUUCCGGAGACGU | 0.785 | 1.12 / 1.25 / 1.46 | 0.425 / 0.0318 / 0.650 | 0 / 0 / 0 |
| GUGGUUCCGGAGACUA | 0.893 | 0.453 / 0.323 / 0.243 | 0 / 0 / 0 | 0 / 0 / 0 |
| GUGGUUCCGGAGACUC | 0.923 | 0.853 / 0.625 / 0.594 | 0.340 / 0.0318 / 0.325 | 0 / 0 / 0 |
| GUGGUUCCGGAGACUG | 1.66 | 0.506 / 0.776 / 0.378 | 0 / 0 / 0 | 0.0932 / 0 / 0.0243 |
| GUGGUUCCGGAGACUU | 0.862 | 0.746 / 0.518 / 0.919 | 0 / 0 / 0 | 0 / 0 / 0 |
| GUGGUUCCGGAGCCAA | 0.723 | 1.47 / 1.25 / 1.35 | 0.283 / 0.0318 / 0.686 | 0 / 0 / 0 |
| GUGGUUCCGGAGCCAC | 0.877 | 1.28 / 0.863 / 1.41 | 0.567 / 0 / 0.289 | 0 / 0 / 0 |
| GUGGUUCCGGAGCCAG | 0.723 | 0.720 / 0.712 / 0.865 | 0 / 0 / 0.361 | 0 / 0 / 0 |
| GUGGUUCCGGAGCCAU | 0.846 | 0.800 / 0.712 / 1.16 | 0 / 0.986 / 0.506 | 0 / 0 / 0 |
| GUGGUUCCGGAGCCCA | 0.785 | 0.613 / 0.668 / 0.838 | 0.227 / 0 / 0.361 | 0 / 0 / 0 |
| GUGGUUCCGGAGCCCC | 1.28 | 0.533 / 0.431 / 0.189 | 0 / 0 / 0 | 0 / 0 / 0 |
| GUGGUUCCGGAGCCCG | 0.831 | 0.480 / 0.323 / 0.243 | 0 / 0 / 0 | 0 / 0 / 0 |
| GUGGUUCCGGAGCCCU | 1.05 | 0.693 / 0.496 / 0.919 | 0 / 0.0318 / 0 | 0 / 0 / 0 |
| GUGGUUCCGGAGCCGA | 0.769 | 0.240 / 0.410 / 0.351 | 0 / 0 / 0 | 0.0186 / 0 / 0 |
| GUGGUUCCGGAGCCGC | 0.923 | 10.2 / 8.52 / 13.8 | 25.5 / 7.73 / 3.11 | 6.06 / 14.8 / 18.2 |
| GUGGUUCCGGAGCCGG | 0.800 | 0.267 / 0.302 / 0.108 | 0 / 0.0636 / 0.0722 | 0 / 0 / 0 |
| GUGGUUCCGGAGCCGU | 0.785 | 0.586 / 0.561 / 0.865 | 0 / 0.0318 / 0.361 | 0 / 0 / 0 |
| GUGGUUCCGGAGCCUA | 0.877 | 0.400 / 0.259 / 0.189 | 0 / 0 / 0.0361 | 0 / 0 / 0 |
| GUGGUUCCGGAGCCUC | 1.02 | 0.426 / 0.410 / 0.297 | 0 / 0 / 0.0361 | 0 / 0 / 0 |
| GUGGUUCCGGAGCCUG | 0.831 | 0.347 / 0.345 / 0.135 | 0 / 0.0318 / 0 | 0 / 0 / 0 |
| GUGGUUCCGGAGCCUU | 0.831 | 0.400 / 0.474 / 0.865 | 0.0283 / 0 / 0.0361 | 0 / 0 / 0 |
| GUGGUUCCGGAGGCAA | 1.17 | 0.693 / 0.733 / 1.32 | 0 / 0 / 0 | 0.0186 / 0 / 0 |
| GUGGUUCCGGAGGCAC | 0.769 | 0.986 / 0.647 / 0.838 | 0 / 0.0318 / 0.469 | 0 / 0 / 0 |
| GUGGUUCCGGAGGCAG | 0.893 | 0.960 / 0.927 / 0.811 | 0 / 0 / 0 | 0 / 0 / 0 |
| GUGGUUCCGGAGGCAU | 2.49 | 0.960 / 1.32 / 1.51 | 1.64 / 1.30 / 0.181 | 1.47 / 1.25 / 0.730 |
| GUGGUUCCGGAGGCCA | 1.08 | 0.293 / 0.647 / 0.216 | 0 / 0 / 0 | 0 / 0 / 0.0243 |
| GUGGUUCCGGAGGCCC | 0.739 | 0.400 / 0.323 / 0.270 | 0 / 0 / 0.0722 | 0 / 0 / 0 |
| GUGGUUCCGGAGGCCG | 0.862 | 0.293 / 0.431 / 0.0811 | 0 / 0 / 0.0361 | 0 / 0 / 0 |
| GUGGUUCCGGAGGCCU | 0.939 | 0.666 / 0.668 / 0.946 | 0 / 0.0318 / 0 | 0 / 0 / 0 |
| GUGGUUCCGGAGGCGA | 0.662 | 0.453 / 0.302 / 0.270 | 0 / 0 / 0 | 0 / 0 / 0 |

4 of these entries, quoted again:

For GUGGUUCCGGAGCCCG (pool 0.831) the result was IR 0.480 / 0.323 / 0.243; LM 0 / 0 / 0; Sys 0 / 0 / 0.
For GUGGUUCCGGAGGCGA (pool 0.662) the result was IR 0.453 / 0.302 / 0.270; LM 0 / 0 / 0; Sys 0 / 0 / 0.
For GUGGUUCCGGAGCCGG (pool 0.800) the result was IR 0.267 / 0.302 / 0.108; LM 0 / 0.0636 / 0.0722; Sys 0 / 0 / 0.
For GUGGUUCCGGAGACCA (pool 0.877) the result was IR 0.320 / 0.410 / 0.324; LM 0 / 0 / 0.0361; Sys 0 / 0 / 0.

For reference, wild type rose from 17.3 per thousand in the pool to 330, 345, 235 (inoculated region), 794, 766, 816 (leaf margin) and 830, 792, 869 (systemic leaves).
With 27,691-54,225 reads a sample, very low values are single reads.
The authors trace changes outside the varied positions to PCR and sequencing errors or to mutation in the plant; presence does not show that a variant is infectious alone.